From patent US20030100094
The exact form of at least one protein or probe is not confirmed.

Protein sequences, listed by entry. Tags and fused reporters are not part of them. Residues count along the entry.
UniProt P00642, 2-277: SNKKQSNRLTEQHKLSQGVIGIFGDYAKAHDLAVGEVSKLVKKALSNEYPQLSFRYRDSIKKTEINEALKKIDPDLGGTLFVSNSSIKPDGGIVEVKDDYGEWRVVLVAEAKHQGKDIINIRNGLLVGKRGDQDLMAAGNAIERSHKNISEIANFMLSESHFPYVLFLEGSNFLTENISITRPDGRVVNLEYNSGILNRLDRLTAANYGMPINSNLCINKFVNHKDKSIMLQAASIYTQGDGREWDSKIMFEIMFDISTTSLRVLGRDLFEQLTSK

Molecular target: EcoRI (UniProt P00642)
Assay: enzyme reaction in vitro
Conditions: control, single EcoRI site linearised; purified recombinant protein; protein details: NEB R0101; only the site is given

Sequence: CCTCAGC (double strand) [supercoiled pUB plasmid (two BbvCI sites, one EcoRI site)]
- activity on this sequence: active
